A mixed list of measured activities; the numbers were collected in NIAID ChemDB.

Common to all: growth or infection tests; organism: Candida albicans; method: broth dilution; measure: MIC

a–b is a range or a potency band. An empty or dashed field is not shown. Conditions beyond the fields shown may differ between rows.

| SMILES | setting | strain or isolate | value |
|---|---|---|---|
| CC(=O)OC12CCC(C(=O)C1)C1C(=O)N(CCCN3CCN(c4ccccc4)CC3)C(=O)C12 |  | DSM 1886 | >100 µM |
| C[C@H]1[C@H](O)[C@@H](C)/C=C/C=C/C=C/C=C/C=C/C=C/C=C/[C@H](O[C@@H]2O[C@H](C)[C@@H](O)[C@H](N)[C@@H]2O)C[C@@H]2O[C@](O)(C[C@@H](O)C[C@@H](O)CC[C@H](O)[C@@H](O)C[C@@H](O)CC(=O)O[C@H]1C)C[C@H](O)[C@H]2C(=O)O |  | 90028 | 0.03 µg/mL |
| C[C@H]1[C@H](O)[C@@H](C)/C=C/C=C/C=C/C=C/C=C/C=C/C=C/[C@H](O[C@@H]2O[C@H](C)[C@@H](O)[C@H](N)[C@@H]2O)C[C@@H]2O[C@](O)(C[C@@H](O)C[C@@H](O)CC[C@H](O)[C@@H](O)C[C@@H](O)CC(=O)O[C@H]1C)C[C@H](O)[C@H]2C(=O)O |  | MTCC 277 | 50 µg/mL |
| CCCCCCCC(=O)NC(CCCN)C(=O)NC(CCCN)C(=O)NC(CCCN)C(=O)NC(CCCN)C(=O)NC(CCCN)C(N)=O |  | ATCC 24433 | >100 µg/mL |
| CCCCCCCCCC(=O)[C@@H](C)C(=O)N[C@@H](CC(C)C)C(=O)N[C@H](C)C(=O)N1CCC[C@H]1C(=O)N[C@H](C(=O)N[C@H]1CSCCNC1=O)C(C)C |  | Day185 | >200 µM |
| Clc1ccc(OC(Cn2nnc3ccccc32)c2ccc(Cl)cc2Cl)cc1 |  | ATCC90027 | >256 µg/mL |
| CC(=O)N1CCN(c2ccc(OC[C@H]3CO[C@](Cn4ccnc4)(c4ccc(Cl)cc4Cl)O3)cc2)CC1 |  | ATCC 90028 | 125 µg/mL |
| CCCCCCCCCC(=O)NC(CCCN)C(=O)NC(CCCN)C(=O)NC(CCCN)C(N)=O |  | ATCC 24433 | 100 µg/mL |
| COc1cc(C2SCC(=O)N2c2ncc(-c3cc4ccccc4oc3=O)o2)ccc1O |  | ATCC 10231 | 28 µg/mL |
| CC1(C)S[C@@H]2[C@H](NC(=O)[C@H](N)c3ccccc3)C(=O)N2[C@H]1C(=O)O |  | ATCC 2002 | 4.7 µg/mL |
| O=C1CSC(c2ccc(O)cc2)N1c1ncc(-c2cc3ccccc3oc2=O)o1 |  | ATCC 10231 | 21 µg/mL |
| Clc1ccc(COC(Cn2ccnc2)c2ccc(Cl)cc2Cl)c(Cl)c1 |  | MTCC 277 | >78.1 µg/mL |
| CC1=CCC2C(C)(C)CCCC2(C)C1CN=C(C)N |  |  | 32 µg/mL |
| CC(C)C[C@@H]1NC(=O)[C@@H]2CCCN2C1=O |  | MTCC 277 | 50 µg/mL |
| Cn1ccnc1C(=O)c1nccn1C | 24 h | ATCC 10231 | >512 µg/mL |
| CCCCCCCCCCCCCCCCCC(=O)NC(CCCN)C(=O)NC(CCCN)C(=O)NC(CCCN)C(N)=O |  | ATCC 24433 | 6.25 µg/mL |
| O=C(NN1C(=O)/C(=C/c2cc3ccccc3nc2Cl)N=C1c1ccccc1)c1ccc([N+](=O)[O-])cc1 |  | MTCC 227 | 100 µg/mL |
| CCCCCCCCCCCCCCCC(=O)NC(CCCN)C(=O)NC(CCCN)C(=O)NC(CCCN)C(=O)NC(CCCN)C(N)=O |  | ATCC 24433 | 3.1 µg/mL |
| O=C(NN1C(=O)/C(=C/c2cc3ccccc3nc2Cl)N=C1c1ccccc1)c1ccccc1O |  | MTCC 227 | 500 µg/mL |
| CC(C)=CCCC(C)CCO |  |  | 1066–2132 µg/mL |
| CCCCCCCC(=O)NC(CCCN)C(=O)NC(CCCN)C(=O)NC(CCCN)C(=O)NC(CCCN)C(N)=O |  | ATCC 24433 | >100 µg/mL |
| C/C(=N\NC(=S)Nc1ccc(I)cc1)c1ccccn1 |  | ATCC 10231 | 10.7 µM |
| C[n+]1c[nH]cc1-c1ccccc1 | 24 h | ATCC 10231 | 500 µg/mL |
| CC(=O)OC12CCC(C(=O)C1)C1C(=O)N(CCCN3CCN(c4ncccn4)CC3)C(=O)C12 |  | DSM 1886 | >100 µM |
| C\C1=C/C=C/C=C/C=C/C=C/CC2CC(O)CC(O)(CC(O)CC(O)CC(O)CC(O)CC(O)CC(O)CC(O)/C=C/C(C)C(C(C)C)OC1=O)O2 |  |  | 70 µg/mL |
| O=C1CSC(c2ccc3c(c2)OCO3)N1c1ncc(-c2cc3ccccc3oc2=O)o1 |  | ATCC 10231 | 18 µg/mL |
| CC(=O)OC12CCC(C(=O)C1)C1C(=O)N(CCCCN3CCN(c4ncccn4)CC3)C(=O)C12 |  | DSM 1886 | >100 µM |
| O=C(NN1C(=O)/C(=C/c2cc3ccccc3nc2Cl)N=C1c1ccccc1)c1ccc(Cl)cc1O |  | MTCC 227 | 500 µg/mL |
| Nc1[nH]c(=O)ncc1F |  | ATCC 90028 | 1 µg/mL |
| O=C1CSC(c2ccc(Cl)cc2)N1c1ncc(-c2cc3ccccc3oc2=O)o1 |  | ATCC 10231 | 36 µg/mL |
| CCCCCCCCCCCCCCCC(=O)NC(CCCN)C(=O)NC(CCCN)C(=O)NC(CCCN)C(=O)NC(CCCN)C(=O)NC(CCCN)C(N)=O |  | ATCC 24433 | 6.25 µg/mL |
| O=C(NN1C(=O)/C(=C/c2cc3ccccc3nc2Cl)N=C1c1ccccc1)c1cccc(O)c1 |  | MTCC 227 | 1000 µg/mL |
| C=C1CC[C@@H]2C[C@H]1C2(C)C.C[C@@H]1[C@H](O)[C@@H](C)/C=C/C=C/C=C/C=C/C=C/C=C/C=C/[C@H](O[C@@H]2O[C@H](C)[C@@H](O)[C@H](N)[C@@H]2O)C[C@@H]2O[C@](O)(C[C@@H](O)C[C@@H](O)[C@H](O)CC[C@@H](O)C[C@@H](O)CC(=O)O[C@H]1C)C[C@H](O)[C@H]2C(=O)O |  | ATCC 10231 | 187 µg/mL |
| CC(C)(O)c1cn(-c2ccc(Cl)cc2)nn1 |  | URM 4819 | 128 µg/mL |
| C[C@H]1[C@H](O)[C@@H](C)/C=C/C=C/C=C/C=C/C=C/C=C/C=C/[C@H](O[C@@H]2O[C@H](C)[C@@H](O)[C@H](N)[C@@H]2O)C[C@@H]2O[C@](O)(C[C@@H](O)C[C@@H](O)CC[C@H](O)[C@@H](O)C[C@@H](O)CC(=O)O[C@H]1C)C[C@H](O)[C@H]2C(=O)O |  |  | 25 µg/mL |
| CCCOC(=O)CC(c1nccn1C)c1nccn1C | 24 h | ATCC 10231 | >512 µg/mL |
| C/C(=N\NC(=S)Nc1ccc(F)cc1)c1ccccn1 |  | ATCC 10231 | 20.6 µM |
| CCCC[C@@H](C)/C=C(C)/C=C(\C)C(=O)N/C(=C/[C@@](C)(O)/C=C/C=C/C=C/C(=O)NC1=C(O)CCC1=O)C(=O)[C@@H]1CO1 |  | 2 | 13 µM |
| O=C1CSC(c2ccc([N+](=O)[O-])cc2)N1c1ncc(-c2cc3ccccc3oc2=O)o1 |  | ATCC 10231 | 16 µg/mL |
| CCCCCCCCCCCCCCCCCCCCCC[C@H](O)CCCCCC |  |  | 500 µM |
| CCCCCCCCCC(=O)[C@H](C)C(=O)N[C@@H](CC(C)C)C(=O)N[C@H](C)C(=O)N1CCC[C@H]1C(=O)N[C@H](C(=O)N[C@H]1CSCCNC1=O)C(C)C |  | Day185 | >200 µM |
| Cc1ccc(C(C)C)c(O)c1 |  | ATCC 24433 | 93000 µg/mL |
| Cn1ccnc1C(CC(=O)O)c1nccn1C | 48 h | ATCC 10231 | >512 µg/mL |

Repeating the final 3 entries:

CCCCCCCCCC(=O)[C@H](C)C(=O)N[C@@H](CC(C)C)C(=O)N[C@H](C)C(=O)N1CCC[C@H]1C(=O)N[C@H](C(=O)N[C@H]1CSCCNC1=O)C(C)C ; strain or isolate: Day185 ; value: >200 µM
Cc1ccc(C(C)C)c(O)c1 ; strain or isolate: ATCC 24433 ; value: 93000 µg/mL
Cn1ccnc1C(CC(=O)O)c1nccn1C ; setting: 48 h ; strain or isolate: ATCC 10231 ; value: >512 µg/mL